ChEMBL document CHEMBL3885881, “DrugMatrix”

Species: Rattus norvegicus
Test: DrugMatrix - Regimen: Daily Repeat
Type: toxicity, organism-based, Sprague-Dawley
Design: regimen Daily Repeat, gender Male, age 6-8 weeks
Settings: in vivo, po, 120 h, tissue Blood, route oral GAVAGE, dose level Low, time 5 day

Substance | MONOCYTE (24 mg/kg, vehicle 100 % WATER) | MONOCYTE ([…], dose 6.3 mg/Kg)
COLISTIN | 2.33% | 
ZIRCONIUM(IV) CHLORIDE |  | 2.33%
